Results deposited as PubChem BioAssay AID1259414 (Drosophila RNAi Screening Center, 2018)

Aim: 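Host factors increasing or decreasing Wolbachia levels in cultured fly cells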 (primary screen)
Cell system: Drosophila JW18 cells infected with Wolbachia
Reagent: long dsRNA against Drosophila genes, 0.25 µg dsRNA per well of a 384-well plate
Time to read-out: 5 days
Challenge: cells persistently infected with Wolbachia before knock-down; no added drug
Read-out: 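Automated imaging of bacterial rRNA staining divided by host cell count, reported as plate-normalised robust z-score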
Scale: Wolbachia per cell robust z: higher = more Wolbachia per host cell than the plate typical
Rule for the call: 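Active if absolute robust z reaches 1.5 in two or more of three replicates, leaving out multi- or no-target dsRNAs, genes unexpressed in JW18 and A1 wells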
In all, the deposit lists about 24,000 reagents; below is a random part of those with a known target gene and a result. Over the whole deposit, about 1,210 (5%) got an active call. 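Inactive calls also include excluded dsRNAs with several or no targets, genes unexpressed in JW18, and well A1, regardless of score.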 Entries without a mark were called inactive. A plus sign joins genes that one reagent is predicted to hit.

gene knocked down | amplicon | Wolbachia per cell robust z, rep 1 | Wolbachia per cell robust z, rep 2 | Wolbachia per cell robust z, rep 3
CG42324 | DRSC08431 | 0.727 | 0.642 | -0.808
CG42324 | DRSC08432 | -0.669 | 1.93 | -2.13
CG42324 | DRSC26516 | 0.347 | 0.933 | 0.338
CG11400 | DRSC06070 | 0.475 | 0.494 | -0.276
uncNacbeta | DRSC00326 | 0.139 | -1.07 | -1.28
CG11854 | DRSC14409 | -0.0383 | -0.0265 | 0.343
fs(2)ltoPP43 | DRSC02067 | -0.619 | 0.782 | -0.0166
fs(2)ltoPP43 | DRSC24493 | 1.04 | -0.098 | 0.615
koko + Vti1b | DRSC16283 | -7.75 (active) | 0.86 | -4.54
koko + Vti1b | DRSC16284 | -0.00787 | -1.18 | 0.71
CG11841 | DRSC14399 | 0.823 | 1.07 | -0.609
CG11841 | DRSC28256 | -0.483 | 0.351 | 0.812
CG13884 | DRSC08354 | -3.58 | -0.981 | -2.27
Akt | DRSC14108 | -0.229 | 1.76 | -0.242
Akt | DRSC40734 | 0.528 | -2.03 | 0.675
Atg18b | DRSC03108 | -0.246 | 0.65 | 0.243
Atg18b | DRSC28594 | 1.58 (active) | 1.69 | -0.651
yellow-e2 | DRSC15169 | -5.05 | 0.543 | 0.772
Prp38 | DRSC07060 | 0.953 | 0.581 | 0.89
Prp38 | DRSC28968 | 0.639 | 1.76 | 0.913
CG14111 | DRSC10114 | -1.18 | 0.991 | 0.377
CG14111 | DRSC27551 | 0.652 | 0.0949 | -1.04
CG14210 + Pstk + Tim9b | DRSC19566 | 0.825 | -0.0585 | -0.0471
CG43397 + CG12902 | DRSC06217 | 0.518 | -0.673 | -2.04
CG33557 | DRSC17854 | 0.558 | 0.607 | 0.873
TwdlD | DRSC25038 | 0.748 | -0.622 | 0.237
nod | DRSC18900 | -0.177 | 1.39 | -0.621
nod | DRSC20356 | 0.172 | 0.74 | -0.0208
karr | DRSC20681 | -1.91 | -1.4 | 0.569
CG14625 | DRSC18633 | 1.37 | 0.311 | -0.913
CG14625 | DRSC25191 | 0.608 | -0.258 | -0.521
RpL7 | DRSC03417 | 4.32 (active) | 2.96 | 3.92
RpL7 | DRSC29340 | 1.03 | 1.53 | 0.285
Brd8 | DRSC14866 | 1.41 | 0.579 | 2.36
Brd8 | DRSC28811 | 0.545 | 0.503 | 0.296
CG14304 | DRSC25016 | 0.522 | 0.936 | 0.745
mib2 | DRSC02623 | -8.46 (active) | -8.92 | -7.18
CG33310 | DRSC01897 | -0.273 | 0.765 | -0.341
CG33310 | DRSC24914 | -0.561 | -1.67 | 0.718
Evi5 | DRSC19421 | -0.146 | -0.764 | 0.219
Evi5 | DRSC27334 | 1.79 | 0.233 | 0.749
HLH3B | DRSC18669 | 0.818 | 0.0909 | -3.36
HLH3B | DRSC25447 | -0.635 | -0.124 | -0.755
mIF2 | DRSC14510 | 0.332 | 0.352 | -0.21
mIF2 | DRSC26368 | 0.1 | -0.53 | -0.415
Agpat3 | DRSC10445 | 0.695 | 0.318 | -1.24
CG42322 | DRSC15112 | -0.647 | -0.417 | -0.837
CG42322 | DRSC15113 | -0.544 | -0.286 | -0.985
CG42322 | DRSC24976 | -0.416 | -0.31 | 0.169
CG15258 | DRSC02478 | -0.492 | -0.539 | -0.395
Tina-1 | DRSC04317 | 0.415 | -1.4 | 0.0615
CG15126 | DRSC06548 | -0.271 | -0.262 | -3.49
Jupiter | DRSC15204 | -1.66 | -1.24 | 0.0896
Jupiter | DRSC15205 | -4.33 (active) | 0.484 | -3
Jupiter | DRSC15389 | -0.0328 | -1.7 | 0.275
Jupiter | DRSC40717 | -0.19 | 0.71 | 0.767
CG34328 | DRSC38793 | -0.293 | 0.766 | -6.3
CG17364 | DRSC10269 | -4.27 | 1.42 | 0.16
CG17364 | DRSC10270 | 1.1 | -3.89 | 0.696
CG17364 | DRSC22689 | -1.96 | 0.571 | 1.18
CG17364 | DRSC29363 | 0.53 | 1.26 | 0.451
CG33262 | DRSC22893 | -0.357 | -1.57 | -2.61
CR33315 | DRSC22947 | 0.676 | -0.0279 | 0.638
CR33315 | DRSC27669 | 1.15 | -0.416 | -1.49
Dlic | DRSC19824 | -1.06 | -0.21 | -0.256
CG4984 + CG4975 | DRSC06908 | -1.9 | -2.09 | -1.7
CG4984 + CG4975 | DRSC39031 | -5.43 | 0.903 | -0.137
CG13031 | DRSC09911 | -0.897 | -1.97 | -2.09
CG14710 | DRSC14933 | 0.639 | 0.268 | 0.168
CstF50 | DRSC15434 | -1.19 | -0.0137 | -3.14
Syx4 | DRSC18586 | -3.65 | -0.906 | -4.57
Syx4 | DRSC27586 | 1.31 | -0.678 | -4.84
GlcAT-S | DRSC02731 | 0.598 | 1.69 | 0.511
GlcAT-S | DRSC27771 | 0.0837 | -1.87 | -0.157
grsm | DRSC14165 | 0.571 | -0.22 | 0.464
grsm | DRSC14843 | 0.292 | 1.45 | 0.881
PGRP-SD | DRSC10856 | 0.583 | -0.0421 | 1.47
CG13813 | DRSC10068 | 0.05 | -0.292 | 0.488
CG30269 | DRSC04158 | -2.68 | 0.374 | -0.516
CG17698 | DRSC11907 | -3.86 | -4.43 | -5.43
CG3652 | DRSC00624 | -0.0364 | 0.988 | 0.47
CG17197 + CG17198 | DRSC15191 | 0.348 | 0.418 | 0.873
c11.1 | DRSC18749 | 0.0821 | 0.0566 | 0.318
ric8a | DRSC18093 | -2.49 (active) | -5.96 | -0.00825
ric8a | DRSC24387 | 0.0964 | -7.31 | 1.39
CG5098 | DRSC06915 | 0.515 | -0.808 | -0.853
CG5098 | DRSC24664 | -1.2 | -0.939 | -0.591
